Compound potency records, mixed from different reports. Data source: NIAID ChemDB in PubChem.

Shared fields: enzyme or target tests; species: Hepatitis C virus; protein: Nonstructural protein 5B

ICn is the concentration giving n% inhibition. An empty or dashed field is not shown. Percent inhibition refers to the dose given; in toxicity tests it is the harm to the cells. Two numbers with a dash give a range or band. Fold resistance: result on the changed form divided by that on wild type. Lines come from different laboratories, so protocols vary.

structure	strain	method	read-out	changes	dose	result
COc1nc(NCCN(C)C)nc(Nc2ccc3[nH]ncc3c2)n1			inhibition		0.1 µg/mL	5%
CC(C)CNc1cc(C(=O)Nc2ccc3cn[nH]c3c2)c(F)cc1F			inhibition		10 µg/mL	30%
CNC(=O)c1c(-c2ccc(F)cc2)oc2cc(N3CCCC3)c(OC)cc12			IC50			≤0.5 µM
O=C(Nc1ccc2cn[nH]c2c1)c1cc(NCCO)c(F)cc1F			inhibition		10 µg/mL	50%
COC(=O)Cc1ccc(CCC2(C3CCCC3)CC(=O)CC(=O)O2)cc1			IC50			10–50 µM
O=C(O)CN1C(=O)C(=Cc2ccc(-c3ccc(Cl)cc3)o2)SC1=S			IC50			≤1 µM
CC(C)NC1=NC(NC(C)C)N(CN)C(Nc2ccc3cn[nH]c3c2)=N1			inhibition		10 µg/mL	70%
Cc1cc(SC2=C(O)CC(CCc3ccc(O)cc3)(C3CCCC3)OC2=O)c(C(C)(C)C)cc1CO			IC50			<1 µM
COc1nc(NCCO)nc(Nc2ccc3cn[nH]c3c2)n1			inhibition		1 µg/mL	55%
O=C(Nc1ccc2cn[nH]c2c1)c1cc(NCCN2CCOCC2)c(F)cc1F			inhibition		0.1 µg/mL	0%
CCOC(=O)N1CCN(c2nc(Nc3ccc4[nH]ncc4c3)nc(OC)n2)CC1			inhibition		0.1 µg/mL	0%
CNC(=O)c1c(-c2ccc(F)cc2)oc2cc(-c3c(C)noc3C)c(OCc3cscn3)cc12			IC50			≤0.5 µM
CC1(c2ccc(CCC3(C4CCCC4)CC(=O)CC(=O)O3)cc2Cl)OCCO1			IC50			<1 µM
O=C(Nc1ccc2[nH]ncc2c1)c1cc(NCCc2ccccn2)c(F)cc1F			inhibition		1 µg/mL	32%
CNC(=O)c1c(-c2ccc(F)cc2)oc2cc(N3CCOCC3)c(OCc3ccccc3)cc12			IC50			≤0.5 µM
CCn1nnnc1SC1=C(O)CC(CCc2cc(Cl)c(OC)cc2OC)(C2CCCC2)OC1=O			IC50			<1 µM
CNC(=O)c1c(-c2ccc(F)cc2)oc2cc(N3CCOCC3)c(OC(F)F)cc12			IC50			≤0.5 µM
Cn1cccc(CCC2(C3CCCC3)CC(=O)CC(=O)O2)c1=O			IC50			>50 µM
CN(C)CCNc1cc(C(=O)Nc2ccc3[nH]ncc3c2)c(F)cc1F			inhibition		10 µg/mL	82%
C[C@@]1(O)[C@H](O)[C@@H](COP(=O)([O-])OP(=O)([O-])OP(=O)([O-])O)O[C@H]1n1cnc2c(N)nc(N)nc21	GT1b	nucleotide incorporation	fold resistance	S282T		10
CNC(=O)c1c(-c2ccc(F)cc2)oc2cc(N(C)S(C)(=O)=O)c(C3CC3)cc12			IC50			≤0.5 µM
CCOC(=O)c1cnc(SC2=C(O)CC(CCc3cc(Cl)c(OC)cc3OC)(C3CCCC3)OC2=O)[nH]1			IC50			<1 µM
CNC(=O)c1c(-c2ccc(F)cc2)oc2cc(CN(C)S(C)(=O)=O)c(OC(C)C)cc12			IC50			≤0.5 µM
O=C(O)CCN1C(=O)C(=Cc2ccc(-c3cc4ccc(OCc5ccccc5)cc4o3)o2)SC1=S			IC50			≤1 µM
CNC(=O)c1c(-c2ccc(F)cc2)oc2cc(Br)c(OC(C)C)cc12			IC50			≤0.5 µM
COc1nc(Nc2ccc3cn[nH]c3c2)nc(N2CCCC2)n1			inhibition		1 µg/mL	33%
O=C1NC(=S)SC1=Cc1ccc(-c2ccc(Cl)c(Cl)c2)s1			IC50			≤1 µM
COc1ccc(CCC2(C3CCCC3)CC(=O)C(C(C)=O)C(=O)O2)c(OC)c1			IC50			10–50 µM
COc1c(-c2ccc3cc(NS(C)(=O)=O)ccc3c2)cc(-n2ccc(=O)[nH]c2=O)cc1C(C)(C)C	GT 4a#1	nucleotide incorporation	IC50			0.9 µM

The first 4 rows once more:

structure	strain	method	read-out	changes	dose	result
COc1nc(NCCN(C)C)nc(Nc2ccc3[nH]ncc3c2)n1			inhibition		0.1 µg/mL	5%
CC(C)CNc1cc(C(=O)Nc2ccc3cn[nH]c3c2)c(F)cc1F			inhibition		10 µg/mL	30%
CNC(=O)c1c(-c2ccc(F)cc2)oc2cc(N3CCCC3)c(OC)cc12			IC50			≤0.5 µM
O=C(Nc1ccc2cn[nH]c2c1)c1cc(NCCO)c(F)cc1F			inhibition		10 µg/mL	50%